The record followed here is US6518061.

In the assay the target is IL-13 receptor (IL-13R) on human tumor cells (human). Description: cell-based or functional assay.

For “cphIL-13-PE38QQR (circularly permuted human IL-13 fused to PE38QQR) (from UniProt P11439 278-389; P11439 406-638)”, the IC50, cytotoxicity on several glioma cell lines was below 0.1 ng/mL.
